This is a selection; strong and weak results do not stand in their true shares. Activity calls are given as the source filed them. Cut-off read from the data, not from the text of the source: active = inhibition above about 11%; inactive = the rest.
assay: reduced absorbance of E. coli cultures with phage – HTS, RecBCD inhibitor project, primary screen (AID 651602); conditions: growth absorbance, at 11.9 µM, hits give high values

SMILES | inhibition
Cc1ccccc1NC1(C#N)CCN(Cc2ccccc2)CC1 | inactive: 1.95%
COc1ccc(C(c2nnnn2C2CCCCC2)N2CCC(n3c(=O)[nH]c4ccccc43)CC2)cc1 (stereo not drawn) | inactive: 0.39%
CCN1CCC(Nc2cccc(F)c2)CC1 | inactive: -1.4%
CC(C)(C)n1nnnc1C(c1ccnc2ccccc12)N1CCC(n2c(=O)[nH]c3ccccc32)CC1 (stereo not drawn) | inactive: 1.87%
O=C(NCC1(N2CCCCC2)CCCCC1)c1ccco1 | inactive: -0.62%
CN(C)c1ccc(C(=O)NCC2(N3CCCCC3)CCCCC2)cc1 | inactive: 1.38%
Cn1c(=O)[nH]cc(N(CCCl)CCCl)c1=O | inactive: 4.34%
COc1cccc(C(c2nnnn2C2CCCCC2)N2CCC(n3c(=O)[nH]c4ccccc43)CC2)c1OC (stereo not drawn) | inactive: 2.15%
CC(=O)N(c1ccccc1)C1CCNCC1 | inactive: 3.19%
CCC(c1nnnn1C1CCCCC1)N1CCC(n2c(=O)[nH]c3ccccc32)CC1 (stereo not drawn) | inactive: -0.39%
COc1cc(OC)cc(C(=O)NCC2(N3CCCCC3)CCCCC2)c1 | inactive: 3.94%
O=c1[nH]c2ccccc2n1C1CCN(C(c2ccnc3ccccc23)c2nnnn2C2CCCCC2)CC1 (stereo not drawn) | inactive: 0.31%
Cc1ccc(C(=O)NCC2(N3CCCCC3)CCCCC2)o1 | inactive: 3.34%
Fc1ccccc1NC1CCN(Cc2ccccc2)CC1 | inactive: 0.99%
Cc1ccc(NC2(C#N)CCN(Cc3ccccc3)CC2)cc1 | inactive: 2.33%
COc1cccc(C(=O)N(c2cc(C)cc(C)c2)C2CCN(C(=O)OC(C)(C)C)CC2)c1 | inactive: 0.64%
COc1cc(OC)cc(C(=O)NCC2(N3CCOCC3)CCCCC2)c1 | inactive: 2.62%
COc1cccc(C(c2nnnn2C2CCCC2)N2CCC(n3c(=O)[nH]c4ccccc43)CC2)c1OC (stereo not drawn) | inactive: 1.03%
CCC(CO)(C(=O)OC1CN2CCC1CC2)c1ccccc1 (stereo not drawn) | inactive: 2.24%
CN1CCC(Nc2ccc(Cl)cc2)CC1 | inactive: 1.48%
CCOc1ncccc1C(=O)NCC1(N2CCOCC2)CCCCC1 | inactive: -0.78%
CN1CCC(Nc2ccc(F)c(Cl)c2)CC1 | inactive: -1.48%

SMILES | inhibition
CC(C)(C)OC(=O)N1CCC(Nc2ccccc2)CC1 | inactive: 2.85%
NN(c1ccccc1)C1CCN(CCc2ccccc2)CC1 | inactive: 5.03%
O=C(O)C1(Nc2ccccc2)CCN(Cc2ccccc2)CC1 | inactive: 1.74%
O=c1[nH]c2ccccc2n1C1CCN(C(c2cc3ccccc3o2)c2nnnn2C2CCCC2)CC1 (stereo not drawn) | inactive: 0.78%
CCCOc1ccc(C(=O)NCC2(N(C)C)CCCCC2)cc1 | inactive: 1.51%
CCOC(=O)N1CCC(Nc2ccc(C)cc2)CC1 | inactive: -0.23%
COc1cccc(C(c2nnnn2C(C)(C)C)N2CCC(n3c(=O)[nH]c4ccccc43)CC2)c1OC (stereo not drawn) | inactive: 1.11%
N/C(=N\O)c1c(N)no[n+]1[O-] | inactive: 2.06%
O=C(OC1CN2CCC1CC2)C1c2ccccc2C=Cc2ccccc21 (stereo not drawn) | inactive: 4%
O=c1[nH]c2ccccc2n1C1CCN(C(c2cccs2)c2nnnn2C2CCCC2)CC1 (stereo not drawn) | inactive: 0.64%
CCCCn1nnnc1C(c1cccc(OC)c1OC)N1CCC(n2c(=O)[nH]c3ccccc32)CC1 (stereo not drawn) | inactive: 2.74%
CCCCn1nnnc1C(c1ccccc1)N1CCC(n2c(=O)[nH]c3ccccc32)CC1 (stereo not drawn) | inactive: -0.23%
COc1cc(C(=O)NCC2(N3CCOCC3)CCCCC2)cc(OC)c1C | inactive: 8.33%
O=C(NCC1(N2CCOCC2)CCCCC1)c1cc(Br)ccc1Cl | inactive: 2.11%
O=c1[nH]c2ccccc2n1C1CCN(C(c2cccs2)c2nnnn2C2CCCCC2)CC1 (stereo not drawn) | inactive: 0.08%
COc1ccc(C(=O)NCC2(N3CCOCC3)CCCCC2)cc1OC | inactive: 0.84%
O=c1[nH]c2ccccc2n1C1CCN(C(c2ccnc3ccccc23)c2nnnn2C2CCCC2)CC1 (stereo not drawn) | inactive: 2.07%
CN(C)C1(CNC(=O)c2cccc(C#N)c2)CCCCC1 | inactive: 3.34%
C/C(N)=N\P(=O)(Oc1ccccc1)Oc1ccccc1 | inactive: 2.83%
c1ccc(CN2CCC(Nc3ccccc3)CC2)cc1 | inactive: 4.14%
O=c1[nH]c2ccccc2n1C1CCN(C(c2ccccc2)c2nnnn2C2CCCC2)CC1 (stereo not drawn) | inactive: 2.44%
CCCN1CCC(Nc2cc(OC)cc(OC)c2)CC1 | inactive: -2.87%

SMILES | inhibition
Cc1cc(N(CCCl)CCCl)ccc1C=O | inactive: -0.08%
CC(C)(C)n1nnnc1C(c1cccc2ccccc12)N1CCC(n2c(=O)[nH]c3ccccc32)CC1 (stereo not drawn) | inactive: 3.02%
N#Cc1ccc(C(=O)NCC2(N3CCCCC3)CCCCC2)cc1 | inactive: -1.62%
CC(C)(C)OC(=O)N1CCC(N(C(=O)c2ccccc2)c2ccc(Cl)cc2)CC1 | inactive: -3.02%
O=C(NCC1(N2CCCCC2)CCCCC1)c1cccc(C(F)(F)F)c1 | inactive: 3.14%
O=C(NCC1(N2CCOCC2)CCCCC1)c1cc(=O)[nH]c2ccccc12 | inactive: 2.14%
COc1cc(C(=O)NCC2(N3CCCCC3)CCCCC2)ccc1OC(F)F | inactive: -0.38%
COc1ccc(NC2CCN(C(=O)OC(C)(C)C)CC2)cc1 | inactive: 2.89%
CC(C)c1ccc(C(=O)NCC2(N3CCOCC3)CCCCC2)cc1 | inactive: -1.31%
CN1CCN(CCOC(=O)C(O)(c2ccccc2)c2ccccc2)CC1 | inactive: 3.91%
CCCCn1nnnc1C(c1cccc2ccccc12)N1CCC(n2c(=O)[nH]c3ccccc32)CC1 (stereo not drawn) | inactive: -0.62%
CC(C)(C)n1nnnc1C(c1ccccc1OC(F)(F)F)N1CCC(n2c(=O)[nH]c3ccccc32)CC1 (stereo not drawn) | inactive: 1.87%
O=C(NCC1(N2CCCCC2)CCCCC1)c1ccc(OC(F)F)cc1 | inactive: 0.15%
CCN1CCC(Nc2ccc(Cl)cc2)CC1 | inactive: -2.25%
O=c1[nH]c2ccccc2n1C1CCN(C(c2ccccc2OC(F)(F)F)c2nnnn2C2CCCC2)CC1 (stereo not drawn) | inactive: 0.24%
N#CC1(Nc2ccccc2)CCN(CCc2ccccc2)CC1 | inactive: 1.25%
O=C(NCC1(N2CCCCC2)CCCCC1)c1cccc([N+](=O)[O-])c1 | inactive: 3.04%
CSc1ccc(C(=O)NCC2(N3CCOCC3)CCCCC2)cc1 | inactive: 2.56%
CN1CCC(Nc2cccc(F)c2)CC1 | inactive: 3.04%
O=C(NCC1(N2CCCCC2)CCCCC1)c1cncc(Br)c1 | inactive: 0.54%
COc1ccc(C(c2nnnn2C2CCCC2)N2CCC(n3c(=O)[nH]c4ccccc43)CC2)cc1 (stereo not drawn) | inactive: -0.86%
Cc1ccc(C(=O)NCC2(N(C)C)CCCCC2)o1 | inactive: 0.47%

SMILES | inhibition
CCCOc1ccc(C(=O)NCC2(N(C)C)CCCCC2)cc1OC | inactive: -0.72%
CC(C)c1ccc(NC2CCN(C(=O)OC(C)(C)C)CC2)cc1 | inactive: 2.3%
COc1ccc(CN(CCCl)CCCl)cc1Cl | inactive: 2.59%
CN(C)c1cccc(C(=O)NCC2(N3CCCCC3)CCCCC2)c1 | inactive: 0.85%
COc1cc(OC)c(C(=O)NCC2(N(C)C)CCCCC2)cc1OC | inactive: -1.27%
CCC(c1nnnn1C(C)(C)C)N1CCC(n2c(=O)[nH]c3ccccc32)CC1 (stereo not drawn) | inactive: 3.67%
O=C(NCC1(N2CCOCC2)CCCCC1)c1cc(F)c(F)cc1Cl | inactive: 5.95%
CCCCn1nnnc1C(c1ccnc2ccccc12)N1CCC(n2c(=O)[nH]c3ccccc32)CC1 (stereo not drawn) | inactive: 0.08%
O=C(NCC1(N2CCCCC2)CCCCC1)c1ccc(Cl)nc1 | inactive: -0.38%
O=c1[nH]c2ccccc2n1C1CCN(C(c2ccccc2OC(F)(F)F)c2nnnn2C2CCCCC2)CC1 (stereo not drawn) | inactive: 0.16%
Cc1cc(C)cc(N(C(=O)c2ccccc2)C2CCN(C(=O)OC(C)(C)C)CC2)c1 | inactive: 1.59%
O=C(NCC1(N2CCOCC2)CCCCC1)c1cc2ccccc2o1 | inactive: 3.2%
O=C(NCC1(N2CCCCC2)CCCCC1)c1ccc(Cl)s1 | inactive: 4.69%
N#CC1(Nc2ccccc2)CCN(Cc2ccccc2)CC1 | inactive: 2.23%
O=c1[nH]c2ccccc2n1C1CCN(C(c2cc3ccccc3o2)c2nnnn2C2CCCCC2)CC1 (stereo not drawn) | inactive: -0.62%
O=C(OC1CN2CCC1CC2)C1c2ccccc2Oc2ccccc21 (stereo not drawn) | inactive: 1.95%
COc1ccc(Cl)cc1C(=O)NCC1(N2CCOCC2)CCCCC1 | inactive: -1.08%
CCOC(=O)N1CCC(Nc2ccc(OC)cc2)CC1 | inactive: 2.47%
CCCCn1nnnc1C(c1ccc(OC)cc1)N1CCC(n2c(=O)[nH]c3ccccc32)CC1 (stereo not drawn) | inactive: 0.4%
COc1ccc(C(=O)NCC2(N3CCCCC3)CCCCC2)cc1 | inactive: 0%
COc1ccc(C(=O)NCC2(N3CCCCC3)CCCCC2)c(OC)c1OC | inactive: 2.65%
CC(C)(C)OC(=O)N1CCC(N(C(=O)c2ccccc2)c2ccc(F)cc2)CC1 | inactive: 2.07%

SMILES | inhibition
CCC(c1nnnn1C1CCCC1)N1CCC(n2c(=O)[nH]c3ccccc32)CC1 (stereo not drawn) | inactive: 3.67%
O=C(NCC1(N2CCCCC2)CCCCC1)c1ccc(=O)[nH]c1 | inactive: -0.08%
CCCCn1nnnc1C(CC)N1CCC(n2c(=O)[nH]c3ccccc32)CC1 (stereo not drawn) | inactive: 0.24%
O=C(NCC1(N2CCCCC2)CCCCC1)c1cccs1 | inactive: 3.67%
CCCCn1nnnc1C(c1cccs1)N1CCC(n2c(=O)[nH]c3ccccc32)CC1 (stereo not drawn) | inactive: 3.67%
CSc1ccccc1C(=O)NCC1(N2CCCCC2)CCCCC1 | inactive: -0.91%
Cc1cccc(NC2(C#N)CCN(Cc3ccccc3)CC2)c1 | inactive: 0.93%
O=c1[nH]c2ccccc2n1C1CCN(C(c2ccccc2)c2nnnn2C2CCCCC2)CC1 (stereo not drawn) | inactive: -1.03%
CCOC(=O)N1CCC(Nc2cccc(C)c2)CC1 | inactive: -1.48%
COc1cc(C(=O)NCC2(N(C)C)CCCCC2)ccc1OC(F)F | inactive: -1.27%
O=c1[nH]c2ccccc2n1C1CCN(C(c2cccc3ccccc23)c2nnnn2C2CCCC2)CC1 (stereo not drawn) | inactive: 3.58%
CC(C)(C)n1nnnc1C(c1ccccc1)N1CCC(n2c(=O)[nH]c3ccccc32)CC1 (stereo not drawn) | inactive: 0.7%
O=C1CCN(Cc2ccccc2)CC1 | inactive: 5.81%
CCOc1ccc(C)cc1CN(CCCl)CCCl | inactive: 2.09%
CCCCOc1ccc(C(=O)NCC2(N3CCOCC3)CCCCC2)cc1 | inactive: 2.52%
CCCCn1nnnc1C(c1cc2ccccc2o1)N1CCC(n2c(=O)[nH]c3ccccc32)CC1 (stereo not drawn) | inactive: 0.39%
O=P1(N(CCCl)CCCl)SCCCS1 | inactive: 1.79%
O=C(NCC1(N2CCCCC2)CCCCC1)c1ccc(F)cc1 | inactive: 3.62%
CCOC(=O)N1CCC(Nc2ccc(F)cc2)CC1 | inactive: 0.38%
COc1ccc(NC2CCN(CCc3ccccc3)CC2)c(OC)c1 | inactive: 0.31%

Source: PubChem BioAssay AID651602 (The Scripps Research Institute Molecular Screening Center, 2012)
